Assay results from US20260234738A1.

Biological target: Bt-SARS-CoV-2 Spike Protein (RBD) (R319-F541).mFc (column 6 of Table 8) (SARS-CoV-2)
Assay: Luminex beads, supernatant

mAb10987 (antibody)
MFI: 26100 MFI
